Measured values published in article PMC8237258 (Journal of Medicinal Chemistry, 2021).

Sequences of proteins named here, by UniProt entry; tags and fusion partners are left off. Residues count along the entry.
UniProt P25092, 24-1073 limits assumed: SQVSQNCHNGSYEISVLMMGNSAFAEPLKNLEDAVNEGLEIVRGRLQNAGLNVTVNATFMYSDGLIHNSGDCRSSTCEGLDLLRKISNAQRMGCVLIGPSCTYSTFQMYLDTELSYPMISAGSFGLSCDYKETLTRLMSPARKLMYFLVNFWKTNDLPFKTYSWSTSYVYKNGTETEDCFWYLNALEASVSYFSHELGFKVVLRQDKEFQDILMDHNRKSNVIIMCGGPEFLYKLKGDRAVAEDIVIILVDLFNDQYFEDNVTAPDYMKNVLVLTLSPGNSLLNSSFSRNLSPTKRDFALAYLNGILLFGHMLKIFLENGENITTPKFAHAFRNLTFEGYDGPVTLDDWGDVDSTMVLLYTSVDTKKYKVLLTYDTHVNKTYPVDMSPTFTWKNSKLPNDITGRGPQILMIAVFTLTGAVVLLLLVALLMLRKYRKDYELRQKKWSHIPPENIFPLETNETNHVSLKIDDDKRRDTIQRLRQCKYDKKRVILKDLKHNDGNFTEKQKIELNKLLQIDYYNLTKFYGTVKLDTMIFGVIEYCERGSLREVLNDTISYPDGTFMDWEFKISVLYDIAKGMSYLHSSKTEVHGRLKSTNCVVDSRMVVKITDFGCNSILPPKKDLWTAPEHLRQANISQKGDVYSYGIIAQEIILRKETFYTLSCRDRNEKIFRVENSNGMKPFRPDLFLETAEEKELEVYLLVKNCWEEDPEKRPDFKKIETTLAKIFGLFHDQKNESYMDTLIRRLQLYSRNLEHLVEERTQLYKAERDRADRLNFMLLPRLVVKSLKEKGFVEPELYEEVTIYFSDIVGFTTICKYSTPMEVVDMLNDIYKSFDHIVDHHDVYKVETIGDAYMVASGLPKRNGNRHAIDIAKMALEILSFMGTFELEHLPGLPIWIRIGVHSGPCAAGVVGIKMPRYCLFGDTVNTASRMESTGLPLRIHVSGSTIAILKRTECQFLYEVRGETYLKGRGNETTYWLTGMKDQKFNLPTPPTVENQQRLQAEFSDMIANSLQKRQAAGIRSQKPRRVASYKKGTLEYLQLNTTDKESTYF

Key:
[1] = Simulated gastric fluid (SGF) stability assay; conditions: simulated gastric fluid with pepsin, pH 1.3, 37 °C, sampled up to 8 h, one-phase decay
Method: (§1) . Simulated gastric fluid (SGF) was prepared by dissolving 20 mg of NaCl and 8 mg of pepsin in 70 μL of concentrated HCl (32%), and the volume was diluted to 10 mL with water (pH 1.3).[36] Simulated intestinal fluid (SIF) was prepared by dissolving 68 mg of KH2PO4 in 500 μL of water followed by the addition of 800 μL of 0.2 M NaOH and 100 mg of porcine pancreatin, and the volume was adjusted to 10 mL with water (pH 6.8).[36] Peptide stock solution (2 mg/mL in water, 15 μL) was diluted in 285 μL of SGF or SIF and incubated at 37 °C. Aliquots (30 μL) were withdrawn at 0 min, 5 min, 15 min, 30 min, 1 h, 2 h, 4 h, and 8 h and subsequently quenched with 30 μL of 0.2 M Na2CO3 (SGF) or 10% aqueous TFA (SIF). The samples were centrifuged, and the supernatant (15 μL) was analyzed by analytical HPLC. The remaining peptide was determined by measuring the peak area and expressing it as a percentage of the peak area at the 0 h time point. Peptide half-life (t1/2) was determined from the degradation profiles and calculated using Prism 7 (GraphPad, La Jolla USA), assuming an exponential one-phase decay.

GC-C receptor = GC-C receptor (Homo sapiens, UniProt P25092); assay: cGMP accumulation in human T84 cells (Cisbio cGMP HTRF assay); conditions: read-out: EC50 ± SEM, 30 min, 0.5 mM IBMX, n ≥ 3
Method: We evaluated our linaclotide analogues for their ability to activate the GC-C receptor in human epithelial intestinal T84 cells that natively express this receptor. GC-C activation results in production of second messenger cGMP, which was measured using a commercially available kit (cGMP HTRF assay kit, Cisbio International). […] . All analogues, except [cyclic]-Linaclotide, retained the ability to increase cGMP levels at nanomolar concentrations (Figure 2B,C). […] . […] Human epithelial colorectal adenocarcinoma T84 cells (ECACC) were routinely cultured in the DMEM + Ham’s F-12 medium supplemented with 10% heat-inactivated fetal calf serum and 2 mM L-glutamine at 37 °C in 5% CO2. Assays measuring cGMP accumulation were performed following the manufacturer’s instructions (cGMP HTRF assay kit, Cisbio International). In brief, increasing concentrations of linaclotide analogues were added to 20,000 cells in DMEM/F12 media containing 0.5 mM IBMX in a white 384-well plate (Optiplate, PerkinElmer Life Sciences). The plates were incubated for 30 min at 37 °C with 5% CO2. […] The emission signals were measured at 590 and 665 nm after excitation at 340 nm using a Tecan multilabel plate reader (Thermo Fisher Scientific).

[2] = Simulated intestinal fluid (SIF) stability assay; conditions: simulated intestinal fluid with porcine pancreatin, pH 6.8, 37 °C, sampled up to 8 h, one-phase decay
Method: as §1

C[C@@H]1NC(=O)[C@@H]2CCCN2C(=O)[C@H](CC(N)=O)NC(=O)[C@@H]2C[Se][Se]C[C@H](N)C(=O)N[C@H]3CSSC[C@H](NC1=O)C(=O)N[C@@H]([C@@H](C)O)C(=O)NCC(=O)N[C@H](C(=O)N[C@H](Cc1ccc(O)cc1)C(N)=O)CSSC[C@H](NC(=O)[C@H](Cc1ccc(O)cc1)NC(=O)[C@H](CCC(=O)O)NC3=O)C(=O)N2
t1/2 SGF [1]: >8 h
EC50 (GC-C receptor): 5 nM
t1/2 SIF [2]: >8 h

This is a selection: effects in other tests are not listed, and their absence says nothing.
